Results of unrelated studies side by side (data: NIAID ChemDB).

Common to all: tests in culture; organism: Candida albicans

A number after MIC or MFC names an inhibition level or a share of isolates. Conditions beyond the fields shown may differ between rows. ECn is the concentration giving n% inhibition of infection, replication or growth. Blank or dashed fields: not listed here.

{"structure": "CC1S[C@H](c2ccc(Cl)cc2)N(c2nc(N3CCN(C)CC3)n[nH]2)C1=O", "read by": "broth dilution", "strain": "A39", "measure": "MIC", "result": "<1 µg/mL"}
{"structure": "C[C@H]1[C@H](O)[C@@H](C)/C=C/C=C/C=C/C=C/C=C/C=C/C=C/[C@H](O[C@@H]2O[C@H](C)[C@@H](O)[C@H](N)[C@@H]2O)C[C@@H]2O[C@](O)(C[C@@H](O)C[C@@H](O)CC[C@H](O)[C@@H](O)C[C@@H](O)CC(=O)O[C@H]1C)C[C@H](O)[C@H]2C(=O)O", "read by": "broth dilution / absorbance", "strain": "CCC 128", "measure": "MIC100", "result": "1.56 µg/mL"}
{"structure": "c1ccc(-c2nc(-c3cnccn3)[nH][n+]2-c2ccccc2)cc1", "read by": "broth dilution", "measure": "MIC", "result": "128 µg/mL"}
{"structure": "CC1(C)CC(=O)c2cc(C3CC(c4ccc(Br)cc4)=NO3)[nH]c2C1", "strain": "ATCC 2091", "measure": "MIC", "result": "200 µg/mL"}
{"structure": "O/N=C/c1ccc(O)cc1", "measure": "MIC100", "result": ">7290 µM"}
{"structure": "COc1cncc(C(N)=NN)n1", "read by": "broth dilution", "measure": "MIC", "result": ">256 µg/mL"}
{"structure": "CN(CCOc1ccc(CC2SC(=O)N(CC(O)(Cn3nccn3)c3ccc(F)cc3F)C2=O)cc1)c1ccccn1", "strain": "CaCYP51", "measure": "MIC80", "result": "6.72 µg/mL"}
{"structure": "O=C(NNC(=S)Nc1ccc(F)cc1)c1cc2ccccc2[nH]1", "read by": "agar", "strain": "ATCC 10231", "measure": "MIC", "result": ">400 µg/mL"}
{"structure": "CC1(C)CC[C@@H]2C[C@H]1C2(C)C", "read by": "broth dilution", "strain": "ATCC 14053", "measure": "MIC100", "result": "155 µg/mL"}
{"structure": "COc1ccc2cc1Oc1ccc(cc1)CCc1cc(O)ccc1-c1ccc(cc1O)CC2", "read by": "broth dilution", "strain": "CA10", "measure": "MIC", "result": ">512 µg/mL"}
{"structure": "Clc1ccc(C(Cc2ccccc2Cl)Cn2ccnc2)c(Cl)c1", "measure": "MIC", "result": "100 µg/mL"}
{"structure": "CS(=O)(=O)OCC1COC(Cn2ccnc2)(c2ccc(-c3ccccc3)cc2)O1", "strain": "44 strains", "measure": "EC50", "result": "64 µg/mL"}
{"structure": "COc1ccc(C2=CC(c3ccc(S(N)(=O)=O)cc3)C(c3ccccc3)C2)cc1", "strain": "ATCC 2091", "measure": "MIC", "result": "200 µg/mL"}
{"structure": "OC[C@@H]1CO[C@](Cn2ccnc2)(c2ccc(-c3ccccc3)cc2)O1", "strain": "44 strains", "measure": "Mean MIC", "result": "151.1 µg/mL"}
{"structure": "Cn1cccc1/C=C1\\SC(=O)N(CC(O)(Cn2nccn2)c2ccc(F)cc2F)C1=O", "strain": "CaCYP51", "measure": "MIC80", "result": "0.56 µg/mL"}
{"structure": "O/N=C\\c1cccs1", "measure": "MIC100", "result": "7870 µM"}
{"structure": "CC1(C)CC(=O)c2cc(/C=C/C(=O)c3ccc(Br)cc3)[nH]c2C1", "strain": "ATCC 2091", "measure": "MIC", "result": "200 µg/mL"}
{"structure": "Oc1ccc2c(c1)CCc1ccc(cc1)Oc1cc(ccc1O)CCc1ccc-2c(O)c1", "read by": "broth dilution", "strain": "CA 02", "measure": "MIC", "result": "32 µg/mL"}
{"structure": "O/N=C\\c1ccccc1", "measure": "MIC100", "result": "8260 µM"}
{"structure": "NNc1nnc2c(n1)Nc1ccccc1C2", "strain": "ATCC 2091", "measure": "MIC", "result": "200 µg/mL"}
{"structure": "Cc1ccc(-c2c3c(N)c4c(nc3nc3c2c(C)nn3-c2ccccc2)CCC4)cc1", "read by": "broth dilution / absorbance", "strain": "CCC 128", "measure": "MIC100", "result": "125 µg/mL"}
{"structure": "Cc1ccc2c(c1)c1nnc(N3CC[N+](C)([O-])CC3)nc1n2C", "strain": "C316", "measure": "MIC", "result": ">125 µg/mL"}
{"structure": "O=S(=O)(NC(=S)Nc1ccccc1)c1ccc(N2N=C(c3ccc(Br)cc3)CC2c2ccccc2)cc1", "strain": "ATCC 2091", "measure": "MIC", "result": "12.5 µg/mL"}
{"structure": "Clc1ccc(CC(Cn2ccnc2)c2ccccc2Cl)c(Cl)c1", "measure": "MIC", "result": "100 µg/mL"}
{"structure": "O=C1S/C(=C\\c2cccnc2)C(=O)N1CC(O)(Cn1nccn1)c1ccc(F)cc1F", "strain": "CaCYP51", "measure": "MIC80", "result": "0.57 µg/mL"}
{"structure": "CCC(C)n1ncn(-c2ccc(N3CCN(c4ccc(OC[C@H]5CO[C@](Cn6cncn6)(c6ccc(Cl)cc6Cl)O5)cc4)CC3)cc2)c1=O", "strain": "Isolate CA-6", "measure": "MIC", "result": ">8 µg/mL"}
{"structure": "CCCCCCCCOc1ccc(C(=O)NC2C[C@@H](O)[C@@H](O)NC(=O)C3[C@@H](O)[C@@H](C)CN3C(=O)C(C(C)O)NC(=O)C([C@H](O)[C@@H](O)c3ccc(O)cc3)NC(=O)C3C[C@@H](O)CN3C(=O)C(C(C)O)NC2=O)cc1", "strain": "Isolate 5", "measure": "MIC", "result": "0.6 µg/mL"}
{"structure": "COc1ccc([C@H]2SCC(=O)N2c2nc(N3CCOCC3)n[nH]2)cc1OC", "read by": "broth dilution", "strain": "A39", "measure": "MIC", "result": ">100 µg/mL"}
{"structure": "COc1cncc(C(N)=NN(C)S(C)(=O)=O)n1", "read by": "broth dilution", "measure": "MIC", "result": ">256 µg/mL"}
{"structure": "O/N=C\\c1ccccc1Cl", "measure": "MIC", "result": "710 µM"}
{"structure": "Clc1ccc(C(CCc2ccccc2)Cn2ccnc2)c(Cl)c1", "measure": "MIC", "result": "100 µg/mL"}
{"structure": "Cc1ccc(-c2c3c(N)c4c(nc3nc3c2c(C)nn3-c2ccccc2)CCCCC4)cc1", "read by": "broth dilution / absorbance", "strain": "CCC 128", "measure": "MIC80", "result": "62.5 µg/mL"}
{"structure": "CCCCCCCCOc1ccc(-c2ccc(C(=O)NC3CC(NCCN)CNC(=O)[C@@H]4[C@@H](O)[C@@H](C)CN4C(=O)[C@@H](CO)NC(=O)[C@H]([C@H](O)Cc4ccccc4)NC(=O)[C@@H]4C[C@@H](O)CN4C(=O)[C@H]([C@@H](C)O)NC3=O)cc2)cc1", "strain": "2183", "measure": "MIC", "result": "0.5 µg/mL"}
{"structure": "C[C@H]1[C@H](O)[C@@H](C)/C=C/C=C/C=C/C=C/C=C/C=C/C=C/[C@H](O[C@@H]2O[C@H](C)[C@@H](O)[C@H](N)[C@@H]2O)C[C@@H]2O[C@](O)(C[C@@H](O)C[C@@H](O)CC[C@H](O)[C@@H](O)C[C@@H](O)CC(=O)O[C@H]1C)C[C@H](O)[C@H]2C(=O)O", "strain": "ATCC64545", "measure": "MIC", "result": "0.25 µg/mL"}
{"structure": "Cc1nc(-c2cncc(Cl)n2)[nH][n+]1-c1ccccc1", "read by": "broth dilution", "measure": "MIC", "result": ">256 µg/mL"}
{"structure": "C[C@H]1[C@H](O)[C@@H](C)/C=C/C=C/C=C/C=C/C=C/C=C/C=C/[C@H](O[C@@H]2O[C@H](C)[C@@H](O)[C@H](N)[C@@H]2O)C[C@@H]2O[C@](O)(C[C@@H](O)C[C@@H](O)CC[C@H](O)[C@@H](O)C[C@@H](O)CC(=O)O[C@H]1C)C[C@H](O)[C@H]2C(=O)O", "strain": "166 isolates", "measure": "MIC90", "result": "1 µg/mL"}
{"structure": "CN1CCN(c2n[nH]c(N3C(=O)CS[C@@H]3c3ccc4c(c3)OCO4)n2)CC1", "read by": "broth dilution", "strain": "149.97", "measure": "MIC80", "result": "0.78 µg/mL"}
{"structure": "COc1ccc(/C=N\\O)cc1", "read by": "broth dilution", "measure": "MIC100", "result": ">6620 µM"}
{"structure": "Cc1ccc(-c2c3c(N)c4c(nc3nc3c2c(C)nn3-c2ccccc2)CCCC4)cc1", "read by": "broth dilution / absorbance", "strain": "CCC 127", "measure": "MIC80", "result": "31.2 µg/mL"}
{"structure": "Cc1ccccc1NC(=S)NNC(=O)c1cc2ccccc2cn1", "read by": "agar", "strain": "ATCC 90028", "measure": "MIC", "result": "50 µg/mL"}
{"structure": "CS(=O)(=O)OC[C@H]1CO[C@](Cn2ccnc2)(c2ccc(-c3ccccc3)cc2)O1", "strain": "44 strains", "measure": "EC50", "result": "64 µg/mL"}
{"structure": "CC(C)(O)c1cn(-c2ccc(Cl)cc2)nn1", "read by": "broth dilution", "strain": "URM 4124", "measure": "MIC", "result": "256 µg/mL"}
{"structure": "CC(C)(C)c1ccc(/C=C2\\SC(=O)N(CC(O)(Cn3nccn3)c3ccc(F)cc3F)C2=O)cc1", "strain": "CaCYP51", "measure": "MIC80", "result": "0.13 µg/mL"}
{"structure": "O=C(OCC1COC(Cn2ccnc2)(c2ccc(-c3ccccc3)cc2)O1)c1ccccc1", "strain": "44 strains", "measure": "MIC50", "result": "16 µg/mL"}
{"structure": "NC(=NC1CCCC1)c1ccc(-c2ccc(-c3ccc(C(N)=NC4CCCC4)cc3)o2)cc1", "strain": "Isolate CA2256 fluconazole-resistant", "measure": "MIC", "result": "25 µg/mL"}
{"structure": "O/N=C\\c1ccc(F)cc1", "measure": "MIC", "result": "7200 µM"}
{"structure": "C[C@H]1[C@H](O)[C@@H](C)/C=C/C=C/C=C/C=C/C=C/C=C/C=C/[C@H](O[C@@H]2O[C@H](C)[C@@H](O)[C@H](N)[C@@H]2O)C[C@@H]2O[C@](O)(C[C@@H](O)C[C@@H](O)CC[C@H](O)[C@@H](O)C[C@@H](O)CC(=O)O[C@H]1C)C[C@H](O)[C@H]2C(=O)O", "strain": "Fluconazole-resistant 4 isolates pooled", "measure": "MFC90", "result": "2 µg/mL"}
{"structure": "Clc1ccc(CC(Cn2ccnc2)c2c(Cl)cccc2Cl)c(Cl)c1", "measure": "MIC", "result": ">100 µg/mL"}
{"structure": "O=C1S/C(=C\\c2ccc(F)cc2F)C(=O)N1CC(O)(Cn1nccn1)c1ccc(F)cc1F", "strain": "CaCYP51", "measure": "MIC80", "result": "1.04 µg/mL"}
{"structure": "Clc1ccc(CC(Cn2ccnc2)c2ccc(Cl)cc2Cl)cc1", "measure": "MIC", "result": "100 µg/mL"}
{"structure": "CN1CCN(c2n[nH]c(N3C(=O)CS[C@@H]3c3ccc(Cl)cc3)n2)CC1", "read by": "broth dilution", "strain": "A39", "measure": "MIC", "result": "100 µg/mL"}
{"structure": "C(=N\\Nc1nnc2c(n1)Nc1ccccc1C2)/c1ccccc1", "strain": "ATCC 2091", "measure": "MIC", "result": "200 µg/mL"}
{"structure": "O=C(NNC(=S)Nc1ccc(F)cc1)c1cccs1", "read by": "agar", "strain": "ATCC 90028", "measure": "MIC", "result": "200 µg/mL"}
{"structure": "C[C@H]1[C@H](O)[C@@H](C)/C=C/C=C/C=C/C=C/C=C/C=C/C=C/[C@H](O[C@@H]2O[C@H](C)[C@@H](O)[C@H](N)[C@@H]2O)C[C@@H]2O[C@](O)(C[C@@H](O)C[C@@H](O)CC[C@H](O)[C@@H](O)C[C@@H](O)CC(=O)O[C@H]1C)C[C@H](O)[C@H]2C(=O)O", "strain": "C316", "measure": "MIC", "result": "0.008 µg/mL"}
{"structure": "CN1CCN(c2ccc3nc(-c4ccc5nc(-c6ccc(O)cc6)[nH]c5c4)[nH]c3c2)CC1", "strain": "RO20", "measure": "MIC50", "result": "9 µM"}
{"structure": "Oc1ccc2cc1Oc1ccc(cc1)CCc1ccc(c(O)c1)-c1c(O)cccc1CC2", "read by": "broth dilution", "strain": "CA10", "measure": "MIC", "result": ">512 µg/mL"}

A second listing of 3 rows from above:

| structure | read by | strain | measure | result |
|---|---|---|---|---|
| COc1cncc(C(N)=NN)n1 | broth dilution | - | MIC | >256 µg/mL |
| O=C(NNC(=S)Nc1ccc(F)cc1)c1cccs1 | agar | ATCC 90028 | MIC | 200 µg/mL |
| Clc1ccc(C(CCc2ccccc2)Cn2ccnc2)c(Cl)c1 | - | - | MIC | 100 µg/mL |